Measurements reported in patent publication US20110190265A1, “METHODS AND COMPOSITIONS FOR TREATING BACTERIAL INFECTIONS BY INHIBITING QUORUM SENSING” (priority 2008, published 2011).

Test system: V. cholerae N16961
Conditions: inhibitor concentrations to 1 μM

SMILES	Effect on growth (OD600) of V. cholerae N16961
CCCCSCC1CN(Cc2c[nH]c3c(N)ncnc23)CC1O (stereo not drawn) [BuT-DADMe-ImmA, 5′-butylthio-(BuT-)DADMe-ImmucillinA]	nontoxicity
CCSCC1CN(Cc2c[nH]c3c(N)ncnc23)CC1O (stereo not drawn) [EtT-DADMe-ImmA, 5′-ethylthio-(EtT-) DADMe-ImmucillinA]	nontoxicity
CSCC1CN(Cc2c[nH]c3c(N)ncnc23)CC1O (stereo not drawn) [MT-DADMe-ImmA, 5′-methylthio-(MT-) DADMe-ImmucillinA]	nontoxicity
